Experimental data as given in PMC5171792 (Scientific Reports, 2016).

Target: H1N1 NA (Influenza A virus (H1N1), UniProt C3W5S3)
Format: biochemical

## Oseltamivir [OTV, reference compound]
  ΔGbind (estimated experimental): -18.25 kcal/mol
